Where a chain is given by its changes, count along the chain named.

B1: humanized antibody 25A1-B2B4AQT (antibody, V domains shown)
VH: QVQLVQSGAEVKKPGASVKVSCKASGYSFTDYNMNWVRQAPGQGLEWMGSINPYYGITSYAQTFKGRVTLTVDKSISTAYMELSRLRSDDTAVYYCARIYYGDSLGLDYWGQGTLVTVSS
VL: EIVLTQSPATLSLSPGERATLSCSASSSVSYMHWYQQKPGQAPRRWIYDTSKLASGIPARFSGSGSGTDFTLTISSLEPEDFAVYYCQQWSSNPLTFGQGTKVEIK
B2: humanized antibody 25A1-B5B6AQT (antibody, V domains shown)
VH: B1 VH with K74T
VL: B1 VL with W46L
B3: mouse monoclonal antibody 25A1 (antibody, V domains shown)
VH: QVKLQQSGPELVKPGASVKISCKASGYSFTDYNMNWVKQSHGKSLEWIGSINPYYGITSYNQTFKGKATLTVDKSSSTAYMQLNSLTSEDSAVYYCARIYYGDSLGLDYWGQGTTVTVSS
VL: DIELTQSPAIMSASPGEKVTMTCSASSSVSYMHWYQQKSGTSPKRWIYDTSKLASGVPARFSGSGSGTSYSLTISSMEAEDAATYYCQQWSSNPLTFGAGTKLEIKR

The test concerns the target various native α-toxin (from the strains tested). Description: cell-based or functional assay.
For the molecule B1, the inhibition of native α-toxin-mediated RBC lysis was in the range of 50 to 90%.

B2 gave an inhibition of native α-toxin-mediated RBC lysis of 50 to 90%.

The molecule B3 had an inhibition of native α-toxin-mediated RBC lysis of 50 to 90%.

Values taken from patent publication US20210317193A1.
